The source of these data is PMC12888856.

The target in the assay is T1, influenza nucleoprotein (NP), recombinant (influenza A virus A/Puerto Rico/8/1934 (H1N1)), P03466.
T1 chain: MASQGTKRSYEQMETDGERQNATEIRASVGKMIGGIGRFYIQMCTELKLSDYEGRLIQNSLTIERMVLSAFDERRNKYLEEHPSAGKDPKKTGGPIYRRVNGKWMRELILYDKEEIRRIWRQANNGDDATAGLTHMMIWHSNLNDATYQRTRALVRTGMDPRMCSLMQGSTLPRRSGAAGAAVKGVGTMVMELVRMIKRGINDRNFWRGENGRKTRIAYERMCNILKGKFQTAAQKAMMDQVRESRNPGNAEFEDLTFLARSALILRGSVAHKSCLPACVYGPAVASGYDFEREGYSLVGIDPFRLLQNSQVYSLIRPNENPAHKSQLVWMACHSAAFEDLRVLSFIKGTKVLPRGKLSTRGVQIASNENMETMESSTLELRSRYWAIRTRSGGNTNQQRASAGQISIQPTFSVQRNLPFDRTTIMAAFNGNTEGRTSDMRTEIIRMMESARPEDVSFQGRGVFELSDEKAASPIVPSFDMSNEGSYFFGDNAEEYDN
The assay is described as follows: SEC. Particulars: remark: other sources report otherwise.

One may read the stoichiometry N as the number of molecules, sites or subunits per partner or assembly.

B1: influenza nucleoprotein (NP), recombinant, P03466 1-498 (natural protein)
chain: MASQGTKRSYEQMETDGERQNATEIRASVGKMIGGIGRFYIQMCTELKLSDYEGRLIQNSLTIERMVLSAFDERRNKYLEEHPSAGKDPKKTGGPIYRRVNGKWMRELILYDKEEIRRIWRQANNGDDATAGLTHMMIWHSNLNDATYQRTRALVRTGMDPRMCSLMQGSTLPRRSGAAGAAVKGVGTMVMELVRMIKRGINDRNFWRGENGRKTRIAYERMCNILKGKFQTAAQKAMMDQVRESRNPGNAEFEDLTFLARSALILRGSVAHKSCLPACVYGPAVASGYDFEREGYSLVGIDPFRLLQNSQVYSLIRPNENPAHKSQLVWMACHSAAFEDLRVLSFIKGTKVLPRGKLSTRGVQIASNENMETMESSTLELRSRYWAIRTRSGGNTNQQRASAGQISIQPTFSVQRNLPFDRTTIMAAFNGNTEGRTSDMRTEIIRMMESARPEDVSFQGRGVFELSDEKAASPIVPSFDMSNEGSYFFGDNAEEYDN
With B1, the stoichiometry N turned out to be 3.
